Test results: the supplement of paper PMC9931576
Human monoclonal antibodies against the spike receptor-binding domain (heavy:light variable regions). IC50 against pseudoviruses bearing the spike of naturally observed variants; lower = stronger; >10 µg/ml means not reached at the top dose. No active / inactive call. The stated detection limit is 0.0005 µg/ml; values near or below 0.001 µg/ml lie at the floor of the assay.

B1: BD56-331 (protein)
chain 1: QVQLVESGGGVVQPGRSLRLSCAASGFTFSNYAMHWVRQAPGKGLEWVAIIWYDGSNKHYAESVKGRFTISRDNSKNTLYLQMNSLRAEDTAVYYCAKNEGVYGSGSYYLFDYWGQGTVVTVSS
chain 2: DIQMTQSPSSLSASVGDRVTITCQASQDISNYLNWYQEKPGKAPKLLIYEASKLETGVPSRFSGGGSETDFTFTISSLQPEDIATYYCQQFDNLPITFGQGTRLEIK
B2: DH1210 (protein)
chain 1: EVQLVQSGAEVKKPGATVKISCKVSGYTFTDSYIHWVQQAPGKGLEWMGLLDPEDGETINAAKFQGRVTITADTSTDTAYMELRSLRSEDTAVYYCGSGSEAHYGIDYWGQGTLVTVSS
chain 2: QSVLTQPPSVSGTPGQRVTISCSGSSSNIGGNFVYWYQQFPGTAPKLLIYLNNRRPSGVPDRFSGSNSGTSASLAISGLRSEDEAEYYCAAWDDSLSGQKVFGTGTKVTVL
B3: BD56-232 (protein)
chain 1: EVQLVESGGGLIQPGGSLRLSCAASGIIVNSNYMIWVRQAPGKGLEWVSIIYSGGSTFYSDSVKGRFTISRDSSKNTLYLQMNTLRVEDTAVYYCAREGLTGTTLSFDYWGQGTLVTVSS
chain 2: DIQMTQSPSSLSASVGDRVTFTCRASQSISNSLNWYQQKPGRAPKLLIYAASSLQSGVPSRFSGSGSGTDFTLTISSLHPEDFATYYCQQSFSTPPYTFGQGTKLEIK
B4: BD56-413 (protein)
chain 1: EVQLVESGGGLVQPGGSLRLSCAASGVTVSRNYMSWVRQAPGKGLEWVSVVYPGGTTDYADSVKGRFTISRHNSKNTLYLQMNSLRADDTAVYYCARDLGPSGTDVWGQGTTVTVSS
chain 2: IQLTQSPSSLSASVGDRVTITCRASQGISSDLAWYQQRPGKAPNLLIYAASTLQSGVPSRFSGSGSGTDFTLTISSLQPEDFATYYCQQLNSYPPPFGGGTKVEIK
B5: BD56-333 (protein)
chain 1: QVQLVQSGAEVKKPGASVKVSCKASGYTFTNYYMHWVRQAPGQGLEWMGIINPSGGSTSSAQKFQGRVTMTRDTSTSTVYMELSSLRSEDTAVYYCARDIVLIPAGSAMDVWGQGTTVTVSS
chain 2: QSALTQPASVSGSPGQSITISCTGTSSDVGRYNYVSWYQQHPGKAPQLMIYDVSERPSGVSNRFSGSKSGNTASLTISGLQAEDEADYYCSAKRSSSSFVFGGGTKLTVL
B6: BD56-418 (protein)
chain 1: QMQLVQSGPEVKKSGTSVKVSCKASGFTFTSSAVQWVRQARGQGLEWIGWIVVGSGNTNYAQKFQERVTISRDMSTSTAYMELSSLRSEDTAVYYCAAPYCSGGSCYDGFDIWGQGTMVTVSS
chain 2: EIVLTQSPGTLSLSPGERATLSCRATQIFRSSYFAWYQQKPGQAPRLLIYGASSRATGIPDRFSGSGSGTDFTLTISRLEPEDFAVYYCQQYDTSPWTFGQGTKVEI
B7: BD56-233 (protein)
chain 1: QVQLEESGGGVVQPGRSLRLSCAASGFRFSSYGMHWVRQAPGKGLEWVAIISHDGSNKYYADSVKGRFTFSRDNSKNTLDLQMNSLRAEDTAVYYCAKETHYYDSSGSYGVGLAFDYWGQGTLVTVSS
chain 2: DIQMTQSPSSLSASVRDRVTITCRASQTISSYLNWYQQKPGKAPKLLIYGASNLQSGVPPRFSGSGSGTEFTLTISSLQPEDFASYYCQQSHSTPRTFGQGTKVEIK
B8: BD56-423 (protein)
chain 1: EVQLVESGGGLVQPGGSLRLSCAASGIIVSSNYMNWVRQAPGKGLEWVSVVYSGGSTFYADSVKGRFTISRHNSQNTLYLQLNSLRTEDTAVYYCARDLMEAGGMDVWGQGTTVIVSS
chain 2: EIVLTQSPGTLSLSPGERATLSCRASQSVSSSYLAWYQQKPGQPPRLLIYGASSRATGIPDRFSGSGSGTDFTLIITRLEPEDFAVYYCQQYGSSPPGITFGQGTRLEIK
B9: BD56-412 (protein)
chain 1: EVQLVESGGGLVQPGGSLRLSCAASGITVSSNYMSWVRQAPGKGLEWVSLLYSGGSTYYADSVKGRFIVSRDNSKNTLYLQLNSLRAEDTAVYFCARDLQEAGAMDVWGQGTTVIVSS
chain 2: DIQMTQSPSTLSASVGDRVTITCRASQSISRWLAWYQQKPGKAPKLLIFQASTLKSGVPSRFSGSGSGTEFTLTISSLQPFDVATYYCQHYNGYSQTFGQGTKVELK
B10: BD56-263 (protein)
chain 1: QVQLVQSGAEVKKPGASVKVSCKASGYSFLNYGITWVRQAPGQGLEWMGWISTYNGNTLYAQRYQGRVTMTTDTSTSTAFVELRSLRSDDTAVYFCARRSQIAVVGTWDHSYYGMDVWGQGTTVSVSS
chain 2: SHELTQPPSVSVSPGQTARITCSGDALPKQYGYWYQQKPGQAPVLVMSKDSERPSGIPERFSGSSSGTTVTLTISGVQAEDEADYYCQSADSRGTVFGGGTKLTVL
B11: BD56-416 (protein)
chain 1: QVQLVQSGAEVKKPGSSVKVSCKASGGTFSNYAINWVRQAPGQGLEWMGRIIPILTTANYAQKFQGRVTIIADKSTSTAYMELSSLRSEDTAVYYCARGGMVGAEYYFDYWGQGTLVTVSS
chain 2: DIVMAQSPDSLAVSLGERATINCKSSQSVLYSSNNKNYLAWYQQKPGQPPKLLIYWASTRESGVPDRFSGSGSGTDFTLTISSLQAEDVAVYYCQQYYSTHSRTFGQGTKVEIK
B12: BD56-330 (protein)
chain 1: EVQLVESGGGVVRPGGSLRLSCAASGFTFADYGIAWVRQVPGKGLEWVAGISWSGANTGHADSVKGRFTISRDNAKNSLYLQMNSLRAEDTAFYHCARVSSINCLVWCAFDIWGQGTMVTVSS
chain 2: EIVMTQSPATLSVSPGERATLSCRASQSVNNKLAWYQQKPGQAPRLLIYGASTRATSIPARFSGSGSGTEFTLTISSLQSEDFAIYYCQQYNNWPPGITFGQGTRLEIK

Tests used:
Assay in all cases: pseudovirus neutralization IC50; higher = weaker neutralization
[1] = target: SARS-CoV-2 Omicron BA.1 spike pseudovirus
Protocol: (§1)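 Single-round VSV luciferase pseudovirus mixed with antibody dilutions for 1 h and put on Huh-7 cells for about a day; IC50 from the dose curve.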

[2] = target: SARS-CoV-2 Omicron BA.2 spike pseudovirus
Protocol: as §1

[3] = target: SARS-CoV-2 Omicron BA.2.75 spike pseudovirus
Protocol: as §1

[4] = target: SARS-CoV-2 Omicron BA.5 spike pseudovirus
Protocol: as §1

[5] = target: SARS-CoV-2 Omicron BQ.1.1 spike pseudovirus
Protocol: as §1

[6] = target: SARS-CoV-2 Omicron XBB spike pseudovirus
Protocol: as §1

[7] = target: SARS-CoV-2 early D614G spike pseudovirus
Protocol: as §1

Binder	pseudovirus neutralization IC50 [1] [µg/mL]	pseudovirus neutralization IC50 [2] [µg/mL]	pseudovirus neutralization IC50 [3] [µg/mL]	pseudovirus neutralization IC50 [4] [µg/mL]	pseudovirus neutralization IC50 [5] [µg/mL]	pseudovirus neutralization IC50 [6] [µg/mL]	pseudovirus neutralization IC50 [7] [µg/mL]
B1	> 10	> 10	> 10	> 10	> 10	> 10	> 10
B2	> 10	> 10	> 10	> 10	> 10	> 10	0.128
B3	0.0688	0.0496	0.685	0.0485	1.44	1.92	0.00976
B4	0.4	0.396	> 10	> 10	> 10	> 10	0.00878
B5	> 10	> 10	> 10	> 10	> 10	> 10	> 10
B6	0.0837	0.0876	0.00424	> 10	> 10	> 10	0.001
B7	0.0814	0.117	0.101	0.735	> 10	> 10	0.00335
B8	0.146	0.0999	1.01	1.51	> 10	> 10	0.0118
B9	0.215	0.288	3.26	3.2	> 10	> 10	0.00517
B10	8.23	6.43	3.75	> 10	> 10	7.31	2.43
B11	1.3	0.918	0.0109	> 10	> 10	> 10	0.0103
B12	> 10	> 10	> 10	> 10	> 10	> 10	1.46
